PubChem BioAssay AID1224833 – University of Georgia | 2016

Screen: 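Host factors restraining rotavirus as candidate antiviral genes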 (primary screen)
System: monkey MA104 kidney cells
Reagents: siRNA pool against human genes, 50 nM
Duration: 48 h knock-down before infection; read 24 h after infection
Treatment: infection with rotavirus strain RV3 two days after transfection; infectious dose for this stage not given
Read-out: 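z-score of rotavirus antigen signal per well, from a fluorescent immunoassay, relative to non-targeting control wells on the same plate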
Reading the numbers: z-score vs non-targeting control: higher = more rotavirus replication than with non-targeting control
Call rule: In these data the active calls have z-score vs non-targeting control at about -1 or lower, or at about 1 or higher
Meaning of the calls: active = z-score beyond 1 either way; inactive = z-score within 1 of zero
Shown is an unselected part of about 12,000 reagents tested. About 5,600 of all reagents (46%) were called active. 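Active calls cover z-scores past 1 in both directions, so they include lowered as well as raised rotavirus replication.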

no.	target gene	z-score vs non-targeting control	activity call
1	GAS2L1 (growth arrest specific 2 like 1)	-0.623	inactive
2	TTC1 (tetratricopeptide repeat domain 1)	-0.691	inactive
3	TMOD1 (tropomodulin 1)	-1.46	active
4	TESMIN (testis expressed metallothionein like protein)	-0.95	inactive
5	ZNF555 (zinc finger protein 555)	1.24	active
6	DDX10 (DEAD-box helicase 10)	-2.55	active
7	SLC25A16	-1.17	active
8	WNT4 (Wnt family member 4)	-1.05	active
9	TMEM86B (transmembrane protein 86B)	-2.79	active
10	RABIF (RAB interacting factor)	-0.158	inactive
11	ABHD12B (abhydrolase domain containing 12B)	-0.854	inactive
12	COPG1 (coat protein complex I subunit gamma 1)	0.699	inactive
13	FHOD1 (formin homology 2 domain containing 1)	0.268	inactive
14	USH2A (usherin)	0.162	inactive
15	KIDINS220 (kinase D interacting substrate 220)	-1.85	active
16	CRYM (crystallin mu)	-0.698	inactive
17	ITFG2 (integrin alpha FG-GAP repeat containing 2)	-0.935	inactive
18	ARRDC5 (arrestin domain containing 5)	-1.66	active
19	BICRAL (BICRA like chromatin remodeling complex associated protein)	0.815	inactive
20	AURKAIP1 (aurora kinase A interacting protein 1)	0.996	inactive
21	TNIP1 (TNFAIP3 interacting protein 1)	0.756	inactive
22	CSN1S1 (casein alpha s1)	-1.64	active
23	PCDHGA3 (protocadherin gamma subfamily A, 3)	0.14	inactive
24	DENND2D (DENN domain containing 2D)	1.17	active
25	RAB18 (RAB18, member RAS oncogene family)	-0.536	inactive
26	RSPH3 (radial spoke head 3)	-2.49	active
27	MANSC1 (MANSC domain containing 1)	1.58	active
28	FCHO1 (FCH and mu domain containing endocytic adaptor 1)	-0.0678	inactive
29	RRP1B (ribosomal RNA processing 1B)	-0.984	inactive
30	ZNF764 (zinc finger protein 764)	-1.22	active
31	CMC1 (C-X9-C motif containing 1)	0.628	inactive
32	ITGB4 (integrin subunit beta 4)	1.87	active
33	NUDT6 (nudix hydrolase 6)	0.526	inactive
34	NELL2 (neural EGFL like 2)	-0.725	inactive
35	VKORC1L1 (vitamin K epoxide reductase complex subunit 1L1)	-0.779	inactive
36	SUN2 (Sad1 and UNC84 domain containing 2)	0.324	inactive
37	ASS1 (argininosuccinate synthase 1)	0.609	inactive
38	NELFE (negative elongation factor complex member E)	-0.891	inactive
39	LRRC8A (leucine rich repeat containing 8 VRAC subunit A)	1.31	active
40	SYT11 (synaptotagmin 11)	-1.48	active
41	OR2V2 (olfactory receptor family 2 subfamily V member 2)	-0.546	inactive
42	TSPAN18 (tetraspanin 18)	1.39	active
43	C3 (complement C3)	-1.61	active
44	MRPL35 (mitochondrial ribosomal protein L35)	-0.62	inactive
45	ADAM10 (ADAM metallopeptidase domain 10)	-0.904	inactive
46	KLF8 (KLF transcription factor 8)	1.07	active
47	RPL10A (ribosomal protein L10a)	-1.28	active
48	REG4 (regenerating family member 4)	1.02	active
49	APEX1 (apurinic/apyrimidinic endodeoxyribonuclease 1)	-0.645	inactive
50	VHL (von Hippel-Lindau tumor suppressor)	-0.898	inactive
51	ERMP1 (endoplasmic reticulum metallopeptidase 1)	0.462	inactive
52	ERICH1 (glutamate rich 1)	1.23	active
53	C1QB (complement C1q B chain)	-1.43	active
54	ZC3H7B (zinc finger CCCH-type containing 7B)	1.67	active
55	PEX12 (peroxisomal biogenesis factor 12)	-0.025	inactive
56	KLHL1 (kelch like family member 1)	0.0642	inactive
57	ARHGEF6 (Rac/Cdc42 guanine nucleotide exchange factor 6)	-1.85	active
58	TNFRSF9 (TNF receptor superfamily member 9)	0.559	inactive
59	GABARAPL1 (GABA type A receptor associated protein like 1)	-1.36	active
60	CDC20 (cell division cycle 20)	0.32	inactive
61	SFRP1 (secreted frizzled related protein 1)	2.17	active
62	ZNF138 (zinc finger protein 138)	-2.25	active
63	SPA17 (sperm autoantigenic protein 17)	-0.97	inactive
64	OGG1 (8-oxoguanine DNA glycosylase)	-1.36	active
65	DPCD (deleted in primary ciliary dyskinesia homolog (mouse))	0.62	inactive
66	QRFP (pyroglutamylated RFamide peptide)	0.19	inactive
67	TCHP (trichoplein keratin filament binding)	-1.51	active
68	CEP83 (centrosomal protein 83)	0.121	inactive
69	RDH12 (retinol dehydrogenase 12)	-2.5	active
70	CTBP1 (C-terminal binding protein 1)	2.23	active
71	SRRT (serrate, RNA effector molecule)	-0.233	inactive
72	TBC1D15 (TBC1 domain family member 15)	1.38	active
73	BICD2 (BICD cargo adaptor 2)	2.22	active
74	API5 (apoptosis inhibitor 5)	-0.701	inactive
75	OR2A5 (olfactory receptor family 2 subfamily A member 5)	-1.7	active
76	LDHD (lactate dehydrogenase D)	0.676	inactive
77	ZNG1F (Zn regulated GTPase metalloprotein activator 1F)	-1.16	active
78	CSMD3 (CUB and Sushi multiple domains 3)	0.928	inactive
79	TDRD1 (tudor domain containing 1)	-1.04	active
80	SOX11 (SRY-box transcription factor 11)	-0.563	inactive
81	LILRA1 (leukocyte immunoglobulin like receptor A1)	-1.07	active
82	LHX6 (LIM homeobox 6)	1.36	active
83	CRLF3 (cytokine receptor like factor 3)	0.865	inactive
84	NOMO2 (NODAL modulator 2)	-1.21	active
85	EDARADD (EDAR associated via death domain)	-0.699	inactive
86	BAG1 (BAG cochaperone 1)	1.5	active
87	ADHFE1 (alcohol dehydrogenase iron containing 1)	-1.22	active
88	ABI3BP (ABI family member 3 binding protein)	-0.342	inactive
89	TANGO2 (transport and golgi organization 2 homolog)	-0.651	inactive
90	B3GNT3	-1.5	active
91	ZNF420 (zinc finger protein 420)	1.24	active
92	EIF3D (eukaryotic translation initiation factor 3 subunit D)	-1.53	active
93	PSG11 (pregnancy specific beta-1-glycoprotein 11)	0.153	inactive
94	LHX8 (LIM homeobox 8)	-0.587	inactive
95	ACCS	-0.642	inactive
96	CEP20 (centrosomal protein 20)	0.665	inactive
97	MACF1 (microtubule actin crosslinking factor 1)	-2.07	active
98	NR1I2 (nuclear receptor subfamily 1 group I member 2)	0.836	inactive
99	NAT14 (N-acetyltransferase 14 (putative))	-0.229	inactive
100	SHBG (sex hormone binding globulin)	-1.09	active
101	SOAT2 (sterol O-acyltransferase 2)	-2.92	active
102	GFRAL (GDNF family receptor alpha like)	0.511	inactive
103	FAM221A (family with sequence similarity 221 member A)	0.892	inactive
104	BCAP29 (B cell receptor associated protein 29)	-2.55	active
105	ZNF460 (zinc finger protein 460)	0.133	inactive
106	TOP1MT (DNA topoisomerase I mitochondrial)	2.09	active
107	CALN1 (calneuron 1)	-0.181	inactive
108	LTB4R (leukotriene B4 receptor)	1.65	active
109	DYNLT5 (dynein light chain Tctex-type family member 5)	-0.567	inactive
110	MANBA (mannosidase beta)	-1.1	active

Reformatted: results already given
MACF1 (microtubule actin crosslinking factor 1)
- z-score vs non-targeting control: -2.07
- activity call: active

NR1I2 (nuclear receptor subfamily 1 group I member 2)
- z-score vs non-targeting control: 0.836
- activity call: inactive

NAT14 (N-acetyltransferase 14 (putative))
- z-score vs non-targeting control: -0.229
- activity call: inactive

SHBG (sex hormone binding globulin)
- z-score vs non-targeting control: -1.09
- activity call: active

SOAT2 (sterol O-acyltransferase 2)
- z-score vs non-targeting control: -2.92
- activity call: active

GFRAL (GDNF family receptor alpha like)
- z-score vs non-targeting control: 0.511
- activity call: inactive
